In article PMC6172217, “A handheld platform for target protein detection and quantification using disposable nanopore strips” (Scientific Reports, 2018):

Tested on: 309 bp DNA/PNA-affibody detection reagent
Assay: Nanopore detection of TNFα
Type: binding

With TNFα the detection outcome (0.75 nM) was “not positively detected”, the “positively detected range above the pore” value (99% positive, three nanopore experiments) was 78 to 1950 µg/L and the TTP (P29, TNFα 0.75 nM, X 0.25, np = criterion not satisfied) was “np and not positive”. The TTP (P29, TNFα 1.5 nM, X 0.5) was 138 s, the TTP (P29, TNFα 3 nM, X 1) was 41 s and the TTP (P29, TNFα 9 nM, X 3) was 10 s. The TTP (P29, TNFα 18 nM, X 6) was 5.3 s and 5 s, the TTP (P29, TNFα 37.5 nM, X 12.5) was 5.6 s and 6 s and the TTP (P30, TNFα 0.75 nM, np = criterion not satisfied) was “np”. It also gave a TTP (P30, TNFα 3 nM) of 31 s, a TTP (P30, TNFα 9 nM) of 60 s and a TTP (P30, TNFα 18 nM) of 22 s. For the same substance, the TTP (P30, TNFα 37.5 nM) was 4.1 s, the TTP (P31, TNFα 1.5 nM) was 306 s and the TTP (P31, TNFα 3 nM) was 84 s. For the same substance, the TTP (P31, TNFα 9 nM) was 9.8 s, the TTP (P31, TNFα 18 nM) was 46 s and the TTP (P31, TNFα 37.5 nM) was 42 s. The “detected range at incubation” value (after dilution factor and unit conversion) was 1.3 to 32.5 mg/L.

“And” between values parts separate entries of the source, which are not always exact repeats. Identical values can stand only once.
